Measurements reported in PubChem BioAssay AID504761 (Drosophila RNAi Screening Center, 2011)

- Assay: 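Insect host genes that dengue virus relies on to spread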 (primary screen)
- System: D.Mel-2 cells from Drosophila
- Reagent: long dsRNA against Drosophila genes
- Conditions: infection with dengue virus type 2; dose and infection time not stated
- Measurement: 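Per well on two replicate plates, imaging gave the percent of cells positive for viral envelope protein, ranked by infection, and a nuclear count of cells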
- Reading the numbers: infection score: higher = more virus-infected cells; cell count: higher = more cells in the well
- Call rule: 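Very low infection ranking in both replicate wells (chance probability at most 0.065), then a retest showing infection dropped 1.5-fold or more at p below 0.05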
- Calls: active = confirmed: knock-down lowers infection; inactive = not picked or not confirmed
In all, the deposit lists about 22,000 reagents; below is a random part of those that have a named target and a result. Over the whole deposit, 116 (0.52%) were called active. 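Calls depend on retest data that are not deposited; infection was ranked per plate without normalising between plates; the unit of the infection score is not given.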 Raw values are not corrected between plates. Unmarked entries are inactive. The numbers tell different reagents against one gene apart. A plus sign joins genes that one reagent is predicted to hit. Not stated in the record: the amount of reagent, the time to read-out.

CG5866 (GeneID 42097) → infection score, replicate 2 = 16.1; cell count, replicate 1 = 462; cell count, replicate 2 = 4731
CG11317 (GeneID 43676) → infection score, replicate 1 = 1.53; infection score, replicate 2 = 2.94; cell count, replicate 1 = 5506; cell count, replicate 2 = 6264
CG8534 (GeneID 41210) → infection score, replicate 1 = 6.11; infection score, replicate 2 = 5.96; cell count, replicate 1 = 6200; cell count, replicate 2 = 6144
Drak (GeneID 32097) #1 → infection score, replicate 2 = 3.78; cell count, replicate 1 = 410; cell count, replicate 2 = 2436
Drak (GeneID 32097) #2 → infection score, replicate 1 = 4.95; infection score, replicate 2 = 3.97; cell count, replicate 1 = 6286; cell count, replicate 2 = 6545
Drak (GeneID 32097) #3 → infection score, replicate 1 = 1.46; cell count, replicate 1 = 893; cell count, replicate 2 = 457
Cyp312a1 (GeneID 40005) #1 → infection score, replicate 1 = 7.39; infection score, replicate 2 = 3.53; cell count, replicate 1 = 6403; cell count, replicate 2 = 6408
Cyp312a1 (GeneID 40005) #2 → infection score, replicate 1 = 2.76; infection score, replicate 2 = 4.92; cell count, replicate 1 = 6227; cell count, replicate 2 = 6283
CG11109 (GeneID 40507) → infection score, replicate 1 = 2.83; infection score, replicate 2 = 1.83; cell count, replicate 1 = 6464; cell count, replicate 2 = 6950
CG30083 (GeneID 246444) → infection score, replicate 1 = 2.31; infection score, replicate 2 = 1.44; cell count, replicate 1 = 6027; cell count, replicate 2 = 5423
tsh (GeneID 35430) → infection score, replicate 1 = 5.66; infection score, replicate 2 = 16.4; cell count, replicate 1 = 6145; cell count, replicate 2 = 6176
CG33309 (GeneID 2768926) → infection score, replicate 1 = 2.83; infection score, replicate 2 = 2.42; cell count, replicate 1 = 5876; cell count, replicate 2 = 5630
CG12496 (GeneID 31226) #1 → infection score, replicate 1 = 1.08; infection score, replicate 2 = 12.6; cell count, replicate 1 = 6658; cell count, replicate 2 = 5123
CG12496 (GeneID 31226) #2 → cell count, replicate 1 = 442; cell count, replicate 2 = 419

Reformatted: 2 of the entries above.
gene,dsRNA no.,"infection score, replicate 1","infection score, replicate 2","cell count, replicate 1","cell count, replicate 2"
Drak (GeneID 32097),3,1.46,,893,457
Cyp312a1 (GeneID 40005),1,7.39,3.53,6403,6408

Additional entries follow.
Cbl (GeneID 38961) #1 → infection score, replicate 1 = 1.26; infection score, replicate 2 = 0.99; cell count, replicate 1 = 6339; cell count, replicate 2 = 6438
Cbl (GeneID 38961) #2 → infection score, replicate 1 = 2.55; infection score, replicate 2 = 2.86; cell count, replicate 1 = 6230; cell count, replicate 2 = 6496
Cbl (GeneID 38961) #3 → infection score, replicate 1 = 9.53; infection score, replicate 2 = 12.6; cell count, replicate 1 = 6295; cell count, replicate 2 = 3506
mei-W68 (GeneID 2768853) → infection score, replicate 1 = 3.44; infection score, replicate 2 = 0.82; cell count, replicate 1 = 6389; cell count, replicate 2 = 6727
Cad87A (GeneID 41441) #1 → infection score, replicate 1 = 2.3; infection score, replicate 2 = 6.92; cell count, replicate 1 = 6691; cell count, replicate 2 = 6948
Cad87A (GeneID 41441) #2 → infection score, replicate 1 = 8.3; infection score, replicate 2 = 15.2; cell count, replicate 1 = 4600; cell count, replicate 2 = 5916
JYalpha (retired record) + JYalpha → infection score, replicate 1 = 4.77; infection score, replicate 2 = 5.02; cell count, replicate 1 = 5997; cell count, replicate 2 = 6398
